# Measured values taken from PMC11946510, “Binding of small molecules at the P-stalk site of ricin A subunit trigger conformational changes that extend into the active site” (2025).
# Key:
# RTA = RTA (Ricinus communis, UniProt P02879)
# ricin holotoxin = ricin holotoxin (Ricinus communis, UniProt P02879)
smiles,measurement,setting,value
CCc1cccc(C)c1-c1ccc(C(=O)O)s1,Ki,RTA,1.8 µM and 2 µM
same,EC50,ricin holotoxin,98 µM

# Values joined by “and” are separate entries in the source; they are usually repeats but may differ in a detail not shown here. Identical values can stand only once.
